Compound potency records, mixed from different reports. Data source: NIAID ChemDB in PubChem.

Common to all: tests in culture; organism: HIV-1; method: p24; read-out: EC50

Rows are shuffled and stem from different studies. An empty or dashed field is not shown. ECn is the concentration giving n% inhibition of infection, replication or growth.

compound | changes | strain | cell line | result
O=C1c2c(O)c(=O)n(C3CCS(=O)(=O)c4ccccc43)c(=O)n2CCN1Cc1ccc(F)cc1 | - | - | MT-4 | <10 µM
CC(C)[C@H](NC(=O)C(Cc1ccccc1)CS(=O)(=O)CCO)C(=O)N[C@@H](Cc1ccccc1)[C@@H](O)[C@H](O)[C@H](Cc1ccccc1)NC(=O)[C@@H](NC(=O)C(Cc1ccccc1)CS(=O)(=O)CCO)C(C)C | - | D34 | PBLC | 6 µM
CC(C)(CS(=O)(=O)[O-])[NH2+]C(=O)C(CC(F)(OC(F)(F)C(F)(OC(F)(F)C(F)(OC(F)(F)C(F)(F)C(F)(F)F)C(F)(F)F)C(F)(F)F)C(F)(F)F)C(F)(OC(F)(F)C(F)(OC(F)(F)C(F)(OC(F)(F)C(F)(F)C(F)(F)F)C(F)(F)F)C(F)(F)F)C(F)(F)F | - | BaL | PBMC | 18 µg/mL
Cc1cn([C@H]2C[C@H](N=[N+]=[N-])[C@@H](COP(=O)(O)CO)O2)c(=O)[nH]c1=O | - | GKV-4046 | MT-4 | 8.3 µM
CC(C)(C)S(=O)(=O)C[C@@H](Cc1cccc2ccccc12)C(=O)NCCC(=O)N[C@@H](Cc1ccccc1)[C@@H](O)[C@H](O)[C@H](Cc1ccccc1)NC(=O)CCNC(=O)[C@H](Cc1cccc2ccccc12)CS(=O)(=O)C(C)(C)C | - | D34 | PBLC | 10 µM
CC(C)n1c(=O)c(O)c2n(c1=O)CCN(Cc1cc3ccccc3cn1)C2=O | - | - | MT-4 | <10 µM
Nc1ccn([C@@H]2O[C@H](CO)C[C@@H]2F)c(=O)n1 | - | - | CEM | 4 µM
CCCCCCCCCCCCCC(=O)OC[C@@H]1C=C[C@H](n2cc(C)c(=O)[nH]c2=O)O1 | - | - | MT-4 | 0.22 µM
CC(C)n1c(=O)c(O)c2n(c1=O)CCN(Cc1ccc(F)cc1Cl)C2=O | - | - | MT-4 | <10 µM
CN1N=C(N)c2cn([C@@H]3O[C@H](COP(=O)(O)O)[C@@H](O)[C@H]3O)c3ncnc1c23 | - | IIIB | - | 0.02 µM
COC(=O)[C@H](C)NP(=O)(OC[C@@H]1C=C[C@H](n2cc(C)c(=O)[nH]c2=O)O1)Oc1ccc(OC)cc1 | RT-Y181C | A17 | PBMC | 0.121 µM
COc1c(Br)c(C(=O)O)c(-c2c3c(c(OC)c(Br)c2C(=O)ONCCN2CCCC2)OCO3)c2c1OCO2 | - | IIIB | H9 | >100 µg/mL
Cc1cn([C@H]2C[C@H](N=[N+]=[N-])[C@@H](COP(=O)(O)C(=O)NCC[N+](C)(C)C)O2)c(=O)[nH]c1=O | - | GKV-4046 | MT-4 | 4.35 µM
COC(=O)[C@H](C)NP(=O)(OC[C@@H]1C=C[C@H](n2cc(C)c(=O)[nH]c2=O)O1)Oc1cc(Cl)ccc1Cl | - | IIIB WT | PBMC | 0.001 µM
Cc1cn([C@H]2C=C[C@@H](COC(=O)CCCCCCCCCCCBr)O2)c(=O)[nH]c1=O | - | - | MT-4 | 0.7 µM
CC(C)[C@H](NC(=O)CCS(=O)(=O)C(C)(C)C)C(=O)N[C@@H](Cc1ccccc1)[C@@H](O)[C@H](O)[C@H](Cc1ccccc1)NC(=O)[C@@H](NC(=O)CCS(=O)(=O)C(C)(C)C)C(C)C | - | D34 | PBLC | 1 µM
CC(C)n1c(=O)c(O)c2n(c1=O)C[C@@H]1CC[C@H](c3ccccc3)N1C2=O | - | - | MT-4 | <10 µM
O=c1cc(-c2cccc3c2Sc2ccccc2S3)oc(N2CCOCC2)c1 | - | HXB2 | C8166 | 2.3 µM
COC(=O)[C@H](C)NP(=O)(OC[C@@H]1C=C[C@H](n2cc(C)c(=O)[nH]c2=O)O1)Oc1ccc(Br)cc1Cl | RT M41L L74V T215Y V106N | RTMDR | PBMC | 0.234 µM
O=C1OCC2OC(O)C(O)C(O)C2OC(=O)c2cc(O)c(O)c(O)c2-c2c(O)c(O)c3oc(=O)c4c(c(O)c(O)c5oc(=O)c2c3c54)-c2c1cc(O)c(O)c2O | - | IIIB | H9 | 2.5 µg/mL
CC(C)[C@H](NC(=O)C(CN)Cc1ccccc1)C(=O)N[C@@H](Cc1ccccc1)[C@@H](O)[C@H](O)[C@H](Cc1ccccc1)NC(=O)[C@@H](NC(=O)C(CN)Cc1ccccc1)C(C)C | - | D34 | PBLC | >25 µM
CC(C)(C)NC(=O)[C@@H]1C[C@@H]2CCCC[C@@H]2CN1C[C@@H](O)[C@H](Cc1ccccc1)NC(=O)[C@H]1CCCS(=O)(=O)C1 | - | IIIB | MT-4 | <0.4 µM
COc1cc2c(c(O)c1OC)-c1c(cc(OC)c(OC)c1O)C[C@H](C)[C@H](C)C2 | - | IIIB | C8166 | 47.5 µM
CC(C)C[C@@H](C=O)NC(=O)[C@H](CC(C)C)NC(=O)[C@H](CC(C)C)NC(=O)OCc1ccccc1 | - | NL4-3 | A3.01 | <40 µM
CC(C)[C@H](NC(=O)[C@H](Cc1cccc2ccccc12)CS(=O)(=O)C(C)(C)C)C(=O)NCCCCNC(=O)[C@@H](NC(=O)[C@H](Cc1cccc2ccccc12)CS(=O)(=O)C(C)(C)C)C(C)C | - | D34 | PBLC | 3 µM
CC(C)[C@H](NC(=O)OCc1ccccn1)C(=O)N[C@@H](Cc1ccccc1)[C@@H](O)C[C@H](Cc1ccccc1)NC(=O)OCc1cccnc1 | - | NL4-3 | MT-4 | <0.8 µM
CC(C)=CCOc1cc(NC(=S)c2ccsc2C)ccc1Cl | - | BaL | MAC | 0.008 µM
CCO/N=C(\c1ccc(Br)cc1)C1CCN(C2(C)CCN(C(=O)c3c(C)cc[n+]([O-])c3C)CC2)CC1 | - | JR-FL | PBMC | 0.005 µM
Cc1cn([C@H]2C[C@H](N=[N+]=[N-])[C@@H](COP(=O)(O)C(Cl)(Cl)Cl)O2)c(=O)[nH]c1=O | - | GKV-4046 | MT-4 | 0.45 µM
CC(C)[C@H](NC(=O)[C@@H](CC(=O)O)Cc1ccccc1)C(=O)N[C@@H](Cc1ccccc1)[C@@H](O)[C@H](O)[C@H](Cc1ccccc1)NC(=O)[C@@H](NC(=O)[C@@H](CC(=O)O)Cc1ccccc1)C(C)C | - | D34 | PBLC | >25 µM
CCOc1cc(-c2nccc3cc(OC)c(OC)cc23)cc(OCC)c1OCC | - | - | MT-2 | 5 µM
CCCCCCCCCCS(=O)(=O)CCC(=O)N[C@H](C(=O)N[C@@H](Cc1ccccc1)[C@@H](O)[C@H](O)[C@H](Cc1ccccc1)NC(=O)[C@@H](NC(=O)CCS(=O)(=O)CCCCCCCCCC)C(C)C)C(C)C | - | D34 | PBLC | 25 µM
NC(=O)c1cc2c([nH]c3ccccc32)c(-c2ccc(CO)o2)n1 | - | KM018 Clinical isolate | PBMC | 0.77 µM

Repeating the first 4 entries:

compound	changes	strain	cell line	result
O=C1c2c(O)c(=O)n(C3CCS(=O)(=O)c4ccccc43)c(=O)n2CCN1Cc1ccc(F)cc1	-	-	MT-4	<10 µM
CC(C)[C@H](NC(=O)C(Cc1ccccc1)CS(=O)(=O)CCO)C(=O)N[C@@H](Cc1ccccc1)[C@@H](O)[C@H](O)[C@H](Cc1ccccc1)NC(=O)[C@@H](NC(=O)C(Cc1ccccc1)CS(=O)(=O)CCO)C(C)C	-	D34	PBLC	6 µM
CC(C)(CS(=O)(=O)[O-])[NH2+]C(=O)C(CC(F)(OC(F)(F)C(F)(OC(F)(F)C(F)(OC(F)(F)C(F)(F)C(F)(F)F)C(F)(F)F)C(F)(F)F)C(F)(F)F)C(F)(OC(F)(F)C(F)(OC(F)(F)C(F)(OC(F)(F)C(F)(F)C(F)(F)F)C(F)(F)F)C(F)(F)F)C(F)(F)F	-	BaL	PBMC	18 µg/mL
Cc1cn([C@H]2C[C@H](N=[N+]=[N-])[C@@H](COP(=O)(O)CO)O2)c(=O)[nH]c1=O	-	GKV-4046	MT-4	8.3 µM